Only a part is listed here, and it is no random draw. Active and inactive are the calls of the source. No stated cut-off is given here; in the data, active means inhibition above about 50%; inactive means the rest.
Test: Mycobacterium tuberculosis growth inhibition, primary screen (AID 1259343)
Conditions: at 10 µM, hits give high values
With `COc1cc(Br)c([N+](=O)[O-])nc1[N+](=O)[O-]` the inhibition was active: 99.7%.
For `CCOP1(=S)c2c(C)nn(-c3ccccc3)c2N=C(c2ccccc2)N1C1CC1` (stereo not drawn), the inhibition was inactive: 9.06%.
With `CC[N+](CC)=C1SC2CS(=O)(=O)C(Br)C2(C)S1` (stereo not drawn) the inhibition was active: 103%.

Source: PubChem BioAssay AID1259343 (VanderVen Lab, College of Veterinary Medicine, Cornell …, 2017)
